Pooled drug test results. Numbers come from NIAID ChemDB, via PubChem.

Common to all: whole-cell or culture tests; agent: Cowpox virus; read-out: EC50

ECn is the concentration giving n% inhibition of infection, replication or growth.

structure	strain or isolate	cells	value
Nc1nc2c(ncn2CCOCP(=O)(O)O)c(=O)[nH]1	Brighton	HFF	10.6 µM
Cc1cn([C@H]2C[C@H](O)[C@]3(CO)C[C@H]23)c(=O)[nH]c1=O	Brighton	HFF	1.5 µg/mL
Nc1ccn(C[C@@H](CO)OCP(=O)(O)O)c(=O)n1	Brighton	VERO	53 µM
Nc1nc(=O)n([C@@H]2O[C@H](CO)[C@@H](O)[C@@H]2O)cc1Cl	Brighton	C1271	4.9 µM
Nc1ccn([C@@H]2C=C(CO)[C@@H](O)[C@H]2O)c(=O)n1	Brighton	-	0.06 µg/mL
CC(=O)N1C(=O)C(=Nc2ccc(S(=O)(=O)Nc3nc(C)cc(C)n3)cc2)c2ccccc21	-	HFF	33 µM
N=c1c2ncn([C@@H]3O[C@H](CO)[C@@H](O)[C@H]3O)c2ncn1OCc1cc(F)cc(F)c1	-	VERO	0.71 µg/mL
Nc1ncnc2c1ncn2[C@@H]1C[C@H](NC=O)[C@@H](O)[C@H]1O	-	HFF	>100 µg/mL
Nc1nccc2c1ncn2[C@@H]1C[C@H](CO)[C@@H](O)[C@H]1O	-	LLC-MK2	25.2 µg/mL
Cc1cc(C)nc(NS(=O)(=O)c2ccc(N=C3C(=O)Nc4ccccc43)cc2)n1	-	HFF	128 µM
Nc1ncnc2c1ncn2C[C@@H](CO)OCP(=O)(O)O	-	LLC-MK2	7.7 µg/mL
O=c1[nH]c(=O)n([C@@H]2O[C@H](CO)[C@@H](O)[C@@H]2F)cc1I	Brighton	VERO	28 µM
Nc1ccn([C@@H]2C=C(CO)[C@@H](O)[C@H]2O)c(=O)n1	CPX	MK2	0.06 µg/mL
Nc1nc(=O)n([C@@H]2O[C@H](CO)[C@@H](O)[C@@H]2O)cc1F	Brighton	VERO	0.22 µM
Nc1nc(=O)n([C@@H]2C=C(CO)[C@@H](O)[C@H]2O)cc1Cl	Brighton	-	21.1 µg/mL
Nc1ncnc2c1ncn2[C@@H]1O[C@H](CO)[C@@H](O)[C@@H]1O	Brighton	C1271	0.9 µM
Cc1cc(C)nc(NS(=O)(=O)c2ccc(N=C3C(=O)Nc4ccc(Br)cc43)cc2)n1	-	HFF	112 µM
CO[C@H]1[C@@H](O)[C@H](n2cnc3c(N)ncnc32)O[C@@H]1CO	Brighton	C1271	4.9 µM
Nc1ccn(C[C@@H](CO)OCP(=O)(O)O)c(=O)n1	-	VERO	13 µg/mL

2 of the rows above, restated:

structure	strain or isolate	cells	value
Cc1cn([C@H]2C[C@H](O)[C@]3(CO)C[C@H]23)c(=O)[nH]c1=O	Brighton	HFF	1.5 µg/mL
N=c1c2ncn([C@@H]3O[C@H](CO)[C@@H](O)[C@H]3O)c2ncn1OCc1cc(F)cc(F)c1	-	VERO	0.71 µg/mL

Blank or dashed fields: not listed here. Lines come from different laboratories, so protocols vary.